A mixed list of measured activities; the numbers were collected in NIAID ChemDB.

Common to all: toxicity to cultured cells; measure: CC50

Lines come from different laboratories, so protocols vary. CCn: concentration that lowers growth or viability of the cells by n%.

C[C@@H]1CN(C(=O)C(=O)c2c[nH]c3c(-n4nnc5ccccc54)cc(Cl)nc23)CCN1C(=O)c1ccccc1 ; cells: HeLa ; read by: trypan blue ; value: >100 µM
COc1ccc(-c2c(C)c(=O)c3cc(C(C)C)ccc3n2C)cc1 ; cells: HeLa S3 ; read by: MTT ; value: 7.6 µg/mL
COc1cnc(-n2ccc(C)n2)c2[nH]cc(C(=O)C(=O)N3CCN(C(=O)c4ccccc4)CC3)c12 ; cells: HeLa ; read by: trypan blue ; value: >100 µM
O=C(NCCc1ccc2c(n1)NCCC2)Nc1cccc2ncccc12 ; cells: PBMC ; value: 1.3 µM
CCn1c(-c2ccc(OC)c(C)c2)cc(=O)c2cc(C(C)C)ccc21 ; cells: HELA-OHIO ; read by: MTT ; value: >4 µg/mL
O=C(NCC1CCc2ccccc2N1)Nc1ccc(Cl)c(Cl)c1 ; cells: PBMC ; value: 6.3 µM
COc1cnc(-c2noc(C)n2)c2[nH]cc(C(=O)C(=O)N3CCN(C(=O)c4ccccc4)[C@H](C)C3)c12 ; cells: HeLa ; read by: trypan blue ; value: >100 µM
O=C(NCCc1ccc2c(n1)NCCC2)NCc1ccncc1 ; cells: PBMC ; value: 50 µM
CCOC(=O)[C@@]1(C)CC[C@]2(C)CC[C@]3(C)C(=CC(=O)[C@@H]4[C@@]5(C)CC/C(=N\OCc6cccc(C)c6)C(C)(C)[C@@H]5CC[C@]43C)[C@@H]2C1 ; cells: K562 ; read by: MTT ; value: 78.1 µM
Cc1c(-c2ccccc2)n(C)c2ccc(NCC(C)C)cc2c1=O ; cells: HELA-OHIO ; read by: MTT ; value: >5 µg/mL
CCOC(=O)[C@@]1(C)CC[C@]2(C)CC[C@]3(C)C(=CC(=O)[C@@H]4[C@@]5(C)CC/C(=N\OCc6ccc(C(=O)OC)o6)C(C)(C)[C@@H]5CC[C@]43C)[C@@H]2C1 ; cells: K562 ; read by: MTT ; value: 18.11 µM
CC(C)C[C@@H]1NC(=O)[C@@H](Cc2c[nH]c3ccccc23)NC(=O)CNC(=O)[C@@H](CC(N)=O)NC(=O)[C@H](C(C)C)NC(=O)[C@@H](CC(C)C)NC1=O ; cells: Lung carcinoma cells ; read by: MTT ; value: >30 µM
CCn1c(-c2nccs2)cc(=O)c2cc(C(C)C)ccc21 ; cells: HELA-OHIO ; read by: MTT ; value: 32 µg/mL
COc1ncc(OC)c2c(C(=O)C(=O)N3CCN(C(=O)c4ccccc4)[C@H](C)C3)c[nH]c12 ; cells: HeLa ; read by: trypan blue ; value: >100 µM
N#C/C(=C(\N)N1CC[N+]2(CC1)CC[N+]1(CCN(/C(N)=C(/C#N)[N+](=O)[O-])CC1)CC2)[N+](=O)[O-] ; cells: K562 ; value: >328.1 µg/mL
CC(C)C[C@@H]1NC(=O)[C@H](Cc2c[nH]c3ccccc23)NC(=O)[C@@H](CCCCN)NC(=O)[C@H](CCC(N)=O)NC(=O)[C@H](CC(C)C)NC(=O)[C@@H](CC(C)C)NC1=O ; cells: Colorectal carcinoma ; read by: MTT ; value: >30 µM
[O-][n+]1onc2c(N3CC[N+]4(CC3)CC[N+]3(CCN(c5ncnc6no[n+]([O-])c56)CC3)CC4)ncnc21 ; cells: L929 ; value: >351.2 µg/mL
O=C(CNc1cccc(F)c1)NCCc1ccc2c(n1)NCCC2 ; cells: PBMC ; value: 50 µM
CCOC(=O)[C@@]1(C)CC[C@]2(C)CC[C@]3(C)C(=CC(=O)[C@@H]4[C@@]5(C)CC/C(=N\OCc6cc(Br)cc(Br)c6)C(C)(C)[C@@H]5CC[C@]43C)[C@@H]2C1 ; cells: K562 ; read by: MTT ; value: 24.34 µM
CC(C)C[C@@H]1NC(=O)[C@H](Cc2c[nH]c3ccccc23)NC(=O)CNC(=O)[C@H](CO)NC(=O)[C@H](C(C)C)NC(=O)[C@@H](CC(C)C)NC1=O ; cells: Colorectal carcinoma ; read by: MTT ; value: >30 µM
CCn1c(-c2ccccc2)c(C)c(=O)c2c(Cl)c(OCC(C)C)ccc21 ; cells: HELA-OHIO ; read by: MTT ; value: >4 µg/mL
C1C[N+]2(CCN1)CC[N+]1(CCNCC1)CC2 ; cells: GMK ; value: >672.7 µg/mL
CC(C)C[C@@H]1NC(=O)[C@@H](CC(C)C)NC(=O)[C@H](Cc2c[nH]c3ccccc23)NC(=O)CNC(=O)[C@H](CC(N)=O)NC(=O)[C@@H](C(C)C)NC1=O ; cells: Lung carcinoma cells ; read by: MTT ; value: >30 µM
COc1cnc(-n2cnc(C)n2)c2[nH]cc(C(=O)C(=O)N3CCN(C(=O)c4ccccc4)[C@H](C)C3)c12 ; cells: HeLa ; read by: trypan blue ; value: >100 µM
CCn1c(-c2cccc(OC)c2)c(C)c(=O)c2cc(C(C)C)ccc21 ; cells: HELA-OHIO ; read by: MTT ; value: >8 µg/mL
CN(C)c1cccc(CCNC(=O)NCc2ccc(Cl)c(Cl)c2)n1 ; cells: PBMC ; value: 50 µM
CCOC(=O)c1cnc(SC)nc1N1CC[N+]2(CC1)CC[N+]1(CCN(c3nc(SC)ncc3C(=O)OCC)CC1)CC2 ; cells: L929 ; value: >72.5 µg/mL
CCn1c(-c2ccccc2)c(C)c(=O)c2cc(NCC(C)C)ccc21 ; cells: HELA-OHIO ; read by: MTT ; value: >5 µg/mL
O=[N+]([O-])c1c(N2CC[N+]3(CC2)CC[N+]2(CCNCC2)CC3)ncnc1N1CC[N+]2(CC1)CC[N+]1(CCN(c3ncnc(N4CC[N+]5(CC4)CC[N+]4(CCNCC4)CC5)c3[N+](=O)[O-])CC1)CC2 ; cells: L929 ; value: >146.1 µg/mL
CCOC(=O)[C@@]1(C)CC[C@]2(C)CC[C@]3(C)C(=CC(=O)[C@@H]4[C@@]5(C)CC/C(=N\OCc6ccccc6F)C(C)(C)[C@@H]5CC[C@]43C)[C@@H]2C1 ; cells: CT26 ; read by: MTT ; value: 21.72 µM
O=C(NCCCl)N1CC[N+]2(CC1)CC[N+]1(CCN(C(=O)NCCCl)CC1)CC2 ; cells: K562 ; value: >90.4 µg/mL
Cc1cc2c(cc1OCC(C)C)c(=O)c(C)c(-c1ccccc1)n2C ; cells: HELA-OHIO ; read by: MTT ; value: >5 µg/mL
COc1cnc(-n2cccn2)c2[nH]cc(C(=O)C(=O)N3CCN(C(=O)c4ccccc4)CC3)c12 ; cells: HeLa ; read by: trypan blue ; value: >100 µM
Cc1nc(N2CC[N+]3(CC2)CC[N+]2(CCN(c4nc(C)[nH]c(=O)c4[N+](=O)[O-])CC2)CC3)c([N+](=O)[O-])c(=O)[nH]1 ; cells: L929 ; value: >331.4 µg/mL

A second listing of 2 rows from above:

O=C(NCCc1ccc2c(n1)NCCC2)Nc1cccc2ncccc12 ; cells: PBMC ; value: 1.3 µM
CCOC(=O)c1cnc(SC)nc1N1CC[N+]2(CC1)CC[N+]1(CCN(c3nc(SC)ncc3C(=O)OCC)CC1)CC2 ; cells: L929 ; value: >72.5 µg/mL